Experimental data as given in publication PMC6422896, “CrgA Protein Represses AlkB2 Monooxygenase and Regulates the Degradation of Medium-to-Long-Chain n-Alkanes in Pseudomonas aeruginosa SJTD-1” (Frontiers in Microbiology, 2019).
For at least one entry, the source does not settle the construct or the ends of the probe. For some of these results: Weaker means in comparison with the reference protein, sequence or condition of that experiment. For some of these results: At least one verdict rests on a figure or table, not on a statement of the authors. Where a protein sequence is shown, tags need not be part of it.

Legend:
[1] = target: T1, CrgA (Pseudomonas aeruginosa SJTD-1) (UniProt Q9I4D7); experiment: DNase I footprinting; settings: 8:1 protein/DNA, bs1 and bs2 protected; recombinant protein; label: 5'-FAM on reverse strand; probe letters rebuilt from the primers and the genome
T1 sequence (looked up, limits assumed): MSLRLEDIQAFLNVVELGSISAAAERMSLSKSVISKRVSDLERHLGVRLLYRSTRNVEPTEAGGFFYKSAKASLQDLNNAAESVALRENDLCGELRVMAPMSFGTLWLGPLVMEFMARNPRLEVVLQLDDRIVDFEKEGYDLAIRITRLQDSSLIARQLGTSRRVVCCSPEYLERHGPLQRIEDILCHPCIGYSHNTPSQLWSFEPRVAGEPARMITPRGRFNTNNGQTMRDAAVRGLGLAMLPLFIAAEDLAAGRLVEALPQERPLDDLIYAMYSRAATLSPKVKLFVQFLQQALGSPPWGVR

[2] = target: T1, CrgA (Pseudomonas aeruginosa SJTD-1); experiment: EMSA; settings: EMSA: 20 mM Tris-HCl, 50 mM NaCl, 1 mM DTT, 0.1 mM EDTA, pH 7.5, 37 C 30 min, 4 pmol DNA in 20 uL, 8% native PAGE, footprinting at 25 C, recombinant protein, label: 5'-FAM on strand 2
[3] = acetyl CoA 20-500 pmol, no release
[4] = hexadecyl (palmitoyl) CoA 20-500 pmol, releases binding
[5] = octadecyl CoA (legend: oleyl CoA) 20-500 pmol, releases binding

Sequence	binding result [1]	binding result [2]	binding result [2, 3]	binding result [2, 4]	binding result [2, 5]	binding result ([2]; 8:1 protein/DNA)
ACGTCATGGTGATCCTTTTATCCAGGGGCGCGTTTTCCGGGGGTATATGGATGGGAAGTGTAACACAGGGCGTTACCCCGCCGGCTTCCCGGCGAAGCGGCGGACAGAACGAAGGTTGGGATGGGGCAGGCCGGCCAAGGGAGGACAATTGTCAGACAATCTAACAAGATAAATACGAGGACTTCCC (double strand) [alkB2-U187]	binds	–	–	–	–	–
AGGACAATTGTCAGACAATCTAACAACAGAACGAAGATAAATACGAGGACTTCCC (double strand) [alkB2-b5]	–	binds more weakly	–	–	–	–
AGGACAATTGTCAGACAATCTAACAAGCGGCGGACAGAACGAAGATAAATACGAGGACTTCCC (double strand) [alkB2-b2]	–	–	binds	binds more weakly	binds more weakly	–
AGGACAATTGTCAGACAATCTAACAGCCGGCCAAGGGAGATAAATACGAGGACTTCCC (double strand) [alkB2-b4]	–	binds more weakly	–	–	–	–
AGGACAATTGTCAGACAATCTAACAGGGATGGGGCAGGCCGGCCAAGGGAGATAAATACGAGGACTTCCC (double strand) [alkB2-b1]	–	–	binds	binds more weakly	binds more weakly	–
GCTTCCCGGCGAAGCGGCGGACAGAACGAAGGTTGGGATGGGGCAGGCCGGCCAAGGGAGGACAATTGTC (double strand) [alkB2-b3]	–	–	binds	binds more weakly	binds more weakly	binds
